According to patent US6417178B1, “Amyloid binding nitrogen-linked compounds for the antemortem diagnosis of alzheimer's disease, in vivo imaging and prevention of amyloid deposits” (University of Pittsburgh, priority 1994, dated 2002):
Entries after “also recorded” stand apart in the source; their conditions may differ.

Tested on: amyloid deposits in AD brain sections
Assay: Histologic staining of amyloid in AD brain sections
Set-up: species or system human
Conditions: Stokes and Trickey or Puchtler method, FITC filters

| Structure (SMILES) | staining of amyloid deposits |
| --- | --- |
| O=C(O)c1cc(N=Nc2ccc(-c3ccc(N=Nc4ccc(O)c(C(=O)O)c4)cc3)cc2)ccc1O [Chrysamine G, 4,4′-bis(3-carboxy-4-hydroxyphenylazo)-biphenyl] | two neuritic plaques stained; also recorded: readily demonstrate the same amyloid-laden vessel |
| Nc1c(/N=N/c2ccc(-c3ccc(/N=N/c4cc(S(=O)(=O)O)c5ccccc5c4N)cc3)cc2)cc(S(=O)(=O)O)c2ccccc12 [Congo red, reference compound] | readily demonstrate the same amyloid-laden vessel |
